## Results of single-concentration screens

Mtb glucose medium: 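Whole-cell growth test on Mycobacterium tuberculosis, read after 3 days in glucose-containing 7H9 medium; the read-out is not stated. Tested at 500 µM. The record gives no direction; compounds that gave an IC50 in retests scored well above the rest, so higher reads as more growth inhibition. Of about 18,000 compounds tested this way, about 1,400 (7.9%) reached 50% or more in at least one test.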
Mtb cholesterol medium: 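Whole-cell growth test on Mycobacterium tuberculosis, read after 4 days in a medium based on cholesterol and the lipid DPPC; the read-out is not stated. Concentration: 500 µM. Direction is inferred from retests: higher values go with more growth inhibition. About 18,000 compounds were tested under these conditions; 5% (about 900) showed 50% or more at least once.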

The filed quantity is “Percent Effect” (%). The controls that fix the scale are not given in the record; negative values are as filed. This is part of a subset picked to be rich in strong results. A dash means the value is not listed here; it may have been measured.

Compound,Mtb glucose medium,Mtb cholesterol medium
CCn1cnnc1CNC(=O)CC1C=CCC1 (centres undefined),-,-4.693
CS(=O)(=O)NCc1ccnc(N2CCCCCC2)c1,10.16,8.037
CC(Oc1cccc(Br)c1)C(=O)NN1CCOCC1 (centres undefined),-,5.949
NC(=O)C1(NC(=O)C2CCc3ccccc32)CCCC1 (centres undefined),-,2.796
Nc1nc(C(F)(F)F)ns1,4.315,-
CS(=O)(=O)Nc1cccc(CNC(=O)C2CCC2)c1,15.6,-
O=C(NCc1ccccn1)c1n[nH]cc1I,25.64,-
O=S(=O)(NCCN1CCNCC1)N1CCOCC1,2.881,-
CN1N=C(C(=O)NCc2cccc(C#N)c2)CCC1=O,12.13,0.195
CCn1ccnc1CNC(=O)c1ccc2c(c1)CCO2,-1.81,-
c1cc2c(cc1CNc1nnc(C3CC3)o1)OCCO2,70.27,69.69
COc1ccc(C)cc1NC(=O)Cn1cccn1,39.73,-
Nc1ccc(CNc2ccc(C(F)(F)F)nn2)cn1,69.68,21.1
O=C(NCCc1ccccn1)Nc1cn[nH]c1,9.512,11.93
Cc1ccc(CCCC(=O)N(C)CC(N)=O)cc1,42.35,28.35
CC(C)[C@H]1CN(CCC(=O)NC2CCCC2)C[C@@H]1N,12.89,-
CCC(CO)NC(=O)C1(Cc2ccccc2)CC1 (centres undefined),-,18.83
Cc1ccc(C(=O)N2CCOCC2(C)C)cc1F,22.8,-
Cc1cc(NC(=O)Cc2ccc3c(c2)OCCO3)no1,53.28,34.03
CCCN(CCC(=O)NC(=O)NC)CC1CCCCO1 (centres undefined),101.8,101
CC(CNc1cccc(F)c1C#N)S(N)(=O)=O (centres undefined),-,5.203
CN(C)CCOc1cnccc1CN,1.508,-
NCc1ccnc(OCC(F)(F)F)c1,77.07,64.73
CCc1nc(C)c(C(=O)NCc2cn3c(n2)SCC3)o1,-,0.2681
CN1CCC(CNC(=O)COc2cccnc2)C1 (centres undefined),3.69,-
OCCOCCNCc1ccc(-c2ccc(F)cc2)o1,56.12,53.82
COc1ccccc1CC(=O)Nc1ccon1,23.74,16.98
CN(C1(C#N)CCC1)S(=O)(=O)c1ccccc1,59.79,-
CC(C)CCN1CCC(CNC(=O)NCCO)CC1,-,-2.201
CC(C)CCOCCSc1nnnn1C,59.81,83.91
CCN(Cc1ccc(CO)o1)CC1CCCO1 (centres undefined),-,-2.563
CC1CCN(C(CN)C(C)C)CC1 (centres undefined),-,15.64
CS(=O)(=O)NCc1ccnc(O)c1,-1.616,-
CN(C)S(=O)(=O)CCCN1C[C@H](C2CC2)[C@@H](N)C1,11.07,-
CCCN1CCC(NC2CCC3(CC2)OCCO3)CC1,-4.535,-
CC[C@H](CO)NCc1ccccc1,-4.665,-
Cc1csc(N2CCCN(C(=O)c3cnsn3)CC2)n1,51.92,-
CCCNCc1ccc2c(c1)n(C)c(=O)n2C,-1.689,-
COC(=O)CC1NCCNC1=O (centres undefined),-,0.2109
COc1ccc(NC(=O)N(CCO)C(C)C)c(C)c1,-2.807,-
CCc1nn(C)c(CC)c1S(=O)(=O)N(C)C(C)CN (centres undefined),7.322,-
Cc1cccc(N2CCN(CCCN)CC2)c1,49.95,98.98
CC(C)(C)OC(=O)N1CCN(C2CCCNC2)C(=O)C1 (centres undefined),6.998,-

For reference, 5 entries once more:

| Compound | Mtb glucose medium | Mtb cholesterol medium |
|---|---|---|
| `O=S(=O)(NCCN1CCNCC1)N1CCOCC1` | 2.881 | - |
| `Cc1cc(NC(=O)Cc2ccc3c(c2)OCCO3)no1` | 53.28 | 34.03 |
| `Cc1ccc(C(=O)N2CCOCC2(C)C)cc1F` | 22.8 | - |
| `CCc1nn(C)c(CC)c1S(=O)(=O)N(C)C(C)CN` (centres undefined) | 7.322 | - |
| `CC(C)CCOCCSc1nnnn1C` | 59.81 | 83.91 |

The values are deposited in ChEMBL (CHEMBL3988442, “University of Dundee, Small-Polar-MMV Screening Library” (2021)).